We go through two substances from article PMC11098500.

For test [1], the target named is human ACE2 ectodomain (residues 1-615), Fc-tagged (human) (UniProt Q9BYF1). Put plainly: SPR. A general note: SPR reads the build-up and loss of mass on a sensor chip optically.
Test [2] addresses domestic dog ACE2 ectodomain (residues 1-614), Fc-tagged (domestic dog). Put plainly: SPR.

pKd: −log10 of the molar value. Where “and” joins values, the source holds several entries; their conditions need not be identical. Identical values can stand only once.

The pKd is the negative decadic logarithm of the Kd, by convention in mol/L. Low readings indicate a large Kd, high ones a small Kd. Take “SARS-CoV-2 RBD (residues 319-529), His-tagged (from UniProt P0DTC2 319-529) (domain or fragment; other documents disagree on this pair)”: in test [1], the pKd was 7.50. Broadly, the koff is the rate constant with which the complex falls apart. One may read the kon as a measure of how fast the partners come together. Low readings indicate slow association, high ones fast association. As to “SARS-CoV-2 RBD (prototypic strain, residues 319-529), His-tagged (from UniProt P0DTC2 319-529) (domain or fragment)”, in test [2], the koff is 0.457 s⁻¹ and 0.546 s⁻¹ and 0.335 s⁻¹; the kon was 882000 M⁻¹ s⁻¹ and 1.04e+06 M⁻¹ s⁻¹ and 652000 M⁻¹ s⁻¹.
